A mixed list of measured activities; the numbers were collected in NIAID ChemDB.

Shared fields: growth or infection tests; species: Plasmodium falciparum; read-out: EC50

An empty or dashed field is not shown. Lines come from different laboratories, so protocols vary. ECn is the concentration giving n% inhibition of infection, replication or growth.

structure,mutations,method,strain,conditions,cells,value
COC(=O)c1ccc(-c2cc(C#N)cc(C3(C(C)C)C(C#N)=C(N)Oc4n[nH]c(C)c43)c2)o1,,radiometric,NF54,,,0.14 µM
N=C(N)c1ccc(NCCCCCNc2ccc(C(=N)N)cc2)cc1,,hypoxanthine uptake,W2,,,0.045 µM
NCCCC[C@H](N)C(=O)N(O)C1C[C@@H](C(N)=O)N(C(=O)c2ccc(-c3cccc([N+](=O)[O-])c3)o2)C1,,flow cytometry,3D7,96 h,Red blood cells,83.2 µM
Cc1[nH]nc2c1C(c1cc(C#N)cc(C(F)(F)F)c1)(C1CC=CC1)C(C#N)=C(N)O2,,radiometric,NF54,,,0.18 µM
N=C(N)c1ccc(NCCNc2ccc(C(=N)N)cc2N)c(N)c1,,hypoxanthine uptake,W2,,,>1 µM
NCCSC[C@H](N)C(=O)N(O)C1C[C@@H](C(N)=O)N(C(=O)CCc2cn(-c3ccccc3)nc2-c2ccccc2)C1,,flow cytometry,3D7,48 h,Red blood cells,48.1 µM
Cn1nc(C(F)(F)F)c(-c2ccc(Br)cc2)c1NC(=O)Nc1ccc(F)cc1F,KAE678-resistant (A184S/P990R),SYBR Green / fluorescence,KAE678R-2,,,0.568 µM
COc1cc2c(NC3CCN(C)CC3)nc(N3CCCN(C)CC3)nc2cc1OCc1ccccc1,,fluorescence,Dd2,,,0.065 µM
CCOC(=O)CCCN(C)c1cc(C#N)cc(C2(C3CCC3)C(C#N)=C(N)Oc3n[nH]c(C)c32)c1,,radiometric,NF54,,,0.92 µM
Clc1cccc(CC[C@H]2C[C@H]3CC[C@H]4C[C@@H](CCc5cccc(Cl)c5)NC(=N2)N34)c1,,LDH,D6,,,6.34 µM
C[C@H]1Cc2c([nH]c3cc(Cl)c(F)cc23)[C@@]2(N1)C(=O)Nc1ccc(Cl)cc12,KAE609-resistant I398D/P990R/D1247Y,SYBR Green / fluorescence,KAE609R-1,,,0.0254 µM
N=C(N)c1ccc(NCCCNc2ccc(C(=N)N)cc2)cc1,,hypoxanthine uptake,D6,,,0.04 µM
Cc1[nH]nc2c1C(c1cc(C#N)cc(N3CCCC3=O)c1)(C1CCC1)C(C#N)=C(N)O2,,radiometric,NF54,,,>2.41 µM
CCCCCCCCCC1CC2CCCC3CC(C)NC(=N1)N23,,LDH,D6,,,3.44 µM
Cn1cc(O)c(=O)cc1CNCCNc1ccnc2cc(Cl)ccc12,,radiometric,3D7,,,0.58 µM
CC(C)=CCC[C@@H]1C[C@@H]2CC[C@@H]3C[C@H](CCC=C(C)C)NC(=N1)N32,,LDH,W2,,,7.59 µM
O=c1cc(CNCCCCNc2ccnc3cc(Cl)ccc23)n(C2CC2)cc1O,,radiometric,K1,,,0.36 µM
CCN(CC)CCCC(C)Nc1ccnc2cc(Cl)ccc12,KAE609-resistant pfatp4 T418N/P990R,SYBR Green / fluorescence,KAE609R-2,,,0.013 µM
N=C(N)c1ccc(OCCCOc2ccc(C(=N)N)cc2N)c(N)c1,,hypoxanthine uptake,D6,,,0.111 µM
O=c1cc(CNCCCNc2ccnc3cc(Cl)ccc23)n(C2CC2)cc1O,,radiometric,3D7,,,0.2 µM
C#CCCC1CC2CCCC3CC(C)NC(=N1)N23,,LDH,D6,,,17.14 µM
O=c1cc(CNCCCCCCNc2ccnc3cc(Cl)ccc23)n(C2CC2)cc1Oc1ccccc1,,radiometric,K1,,,0.03 µM
CCCCC[C@@H]1C[C@@H]2CCC[C@@H]3C[C@H](CCCCC)NC(=N1)N32,,LDH,W2,,,2.82 µM
Cc1[nH]nc2c1C(c1cc(C#N)cc(-c3ccnn3C)c1)(C1CCC1)C(C#N)=C(N)O2,,radiometric,NF54,,,1.09 µM
CC[C@H]1OC(=O)[C@H](C)[C@@H](OC2C[C@@](C)(OC)[C@@H](O)[C@H](C)O2)[C@H](C)[C@@H](OC2O[C@H](C)C[C@H](N(C)C)[C@H]2O)[C@](C)(OC2C[C@@H](N(C)C)[C@@H](O)[C@H](C)O2)C[C@@H](C)C(=O)[C@H](C)[C@@H](O)[C@]1(C)O,,fluorescence,3D7AziR,120 h,RBC,1.8 µM
Cc1[nH]nc2c1C(c1cc(C#N)cc(-c3ccc(C(=O)NCCCN4CCN(C)CC4)s3)c1)(C(C)C)C(C#N)=C(N)O2,,radiometric,TM90C2B,,,1.33 µM
CCCCCCCCCC1CC2CCC3CC(C)NC(=N1)N23,,LDH,W2,,,6.2 µM
CCN(CC)CCCC(C)Nc1ccnc2cc(Cl)ccc12,,LDH / absorbance,Dd2,,,0.1235 µM
N=C(N)c1ccc(NCCCCCNc2ccc(C(=N)N)cc2N)c(N)c1,,hypoxanthine uptake,D6,,,0.084 µM
Cc1[nH]nc2c1C(c1cc(C#N)cc(-c3ccc(C(=O)O)s3)c1)(C(C)C)C(C#N)=C(N)O2,,radiometric,K1,,,1.06 µM
N=C(N)c1ccc(NCCCNc2ccc(C(=N)N)cc2[N+](=O)[O-])c([N+](=O)[O-])c1,,hypoxanthine uptake,D6,,,0.138 µM
CC[C@H]1OC(=O)[C@H](C)[C@@H](OC2C[C@@](C)(OC)[C@@H](O)[C@H](C)O2)[C@H](C)[C@@H](OC2O[C@H](C)C[C@H](N(C)C)[C@H]2O)[C@](C)(OC2C[C@@H](O)[C@H](O)[C@H](C)O2)C[C@@H](C)C(=O)[C@H](C)[C@@H](O)[C@]1(C)O,,fluorescence,W2 Mef,48 h,RBC,58.6 µM
Cc1[nH]nc2c1C(c1cc(C#N)cc(-c3ccc(C(=O)O)cc3)c1)(C(C)C)C(C#N)=C(N)O2,,radiometric,NF54,,,0.34 µM
CCCC[C@@H]1C[C@@H]2CCC[C@@H]3C[C@H](CCCC)NC(=N1)N32,,LDH,D6,,,2.99 µM
c1cc(C2=NCCN2)ccc1OCCCCOc1ccc(C2=NCCN2)cc1,,hypoxanthine uptake,D6,,,0.164 µM
Cc1[nH]nc2c1C(c1cc(Cl)cc(Cl)c1)(C1CC1)C(C#N)=C(N)O2,,radiometric,NF54,,,>2.77 µM
N=C(N)c1cccc(OCCCOc2cccc(C(=N)N)c2)c1,,hypoxanthine uptake,W2,,,0.11 µM
c1ccc(CC[C@@H]2C[C@@H]3CC[C@@H]4C[C@H](CCc5ccccc5)NC(=N2)N43)cc1,,LDH,W2,,,8.04 µM

2 of the rows above, restated:

structure | mutations | method | strain | conditions | cells | value
Cn1cc(O)c(=O)cc1CNCCNc1ccnc2cc(Cl)ccc12 |  | radiometric | 3D7 |  |  | 0.58 µM
N=C(N)c1cccc(OCCCOc2cccc(C(=N)N)c2)c1 |  | hypoxanthine uptake | W2 |  |  | 0.11 µM